In patent US7569573B2, “Diketo acids with nucleobase scaffolds: anti-HIV replication inhibitors targeted at HIV integrase” (The University of Georgia Research Foundation, Inc., priority 2005, dated 2009):

Test system: HIV
Assay: In vitro anti-HIV activity, PBMC cell-based assay, side by side with AZT
Details: side by side comparison with AZT

SMILES	Therapeutic Index
Cc1cn([C@H]2C[C@H](N=[N+]=[N-])[C@@H](CO)O2)c(=O)[nH]c1=O [AZT]	5,511
O=C(O)/C(O)=C/C(=O)c1cn(Cc2ccccc2)c(=O)n(Cc2ccccc2)c1=O	> 10,000

The index is printed as in the source, without its formula.
